Compound potency records, mixed from different reports. Data source: NIAID ChemDB in PubChem.

Common to all: tests on isolated targets; organism: HIV-1; target: Reverse transcriptase; measure: IC50

Neighbouring rows are from separate reports.

{"structure": "Cc1cc(C)c(-n2nnnc2SCC(=O)Nc2ccc(C(N)=O)cc2C)c(C)c1", "mutations": "RT-K103N", "value": "0.055 µM"}
{"structure": "Cc1csc(NC(=S)N[C@H](C)c2cccc3ccccc23)n1", "value": "1.17 µM"}
{"structure": "Cc1c(Cc2c(F)cccc2F)nc(Sc2ccc(Cl)cc2)[nH]c1=O", "mutations": "RT-K103N", "value": ">400 µM"}
{"structure": "Cc1cccc2c1nc(-c1cccc3ccccc13)n2Cc1c(F)cccc1F", "value": ">10 µM"}
{"structure": "CN(CC(O)C[C@@H](Cc1ccccc1)C(=O)N[C@H]1CCCC[C@@H]1NC(=O)c1ccc2ccccc2n1)[C@@H](CC1CCCCC1)C(=O)NC(C)(C)C", "value": "100 µM"}
{"structure": "Cc1cccc2c1ncn2Cc1c(F)cccc1F", "value": ">10 µM"}
{"structure": "Nc1nc(=O)n([C@H]2C=C[C@@H](COP(=O)(O)OP(=O)(O)OP(=O)(O)O)O2)cc1F", "value": "0.27 µM"}
{"structure": "O=C(O)C1=CC(OC(=O)c2cc(O)c(O)c(O)c2)C(O)[C@H](O)C1", "value": ">333 µg/mL"}
{"structure": "CC(=O)Oc1c(-c2ccc(Cl)c(Cl)c2)oc2ccccc2c1=O", "value": ">100 µM"}
{"structure": "COc1ccc(Sc2nc(Cc3c(F)cccc3F)c(C)c(=O)[nH]2)cc1", "mutations": "RT-K103N", "value": ">400 µM"}
{"structure": "O=C(Oc1c(-c2ccc(Cl)c(Cl)c2)oc2ccccc2c1=O)c1cc(OCc2ccccc2)c(OCc2ccccc2)c(OCc2ccccc2)c1", "value": ">100 µM"}
{"structure": "CCOCn1c(Cc2cc(C)cc(C)c2)c(CC)c(=O)[nH]c1=O", "strain": "IIIB", "value": "0.36 µM"}
{"structure": "Cc1cccc2sc(NC(=S)N[C@H](C)c3cccc4ccccc34)nc12", "value": "10.2 µM"}
{"structure": "O=C(CSc1nnnn1-c1cc(Cl)ccc1Cl)Nc1ccccc1[N+](=O)[O-]", "mutations": "RT-K103N", "value": "0.004 µM"}
{"structure": "Cc1cn([C@@H]2C[C@H](OP(=O)(O)OC[C@H]3O[C@H](n4cc(C)c(=O)[nH]c4=O)C[C@@H]3O)[C@@H](CO)O2)c(=O)[nH]c1=O", "value": ">100 µM"}
{"structure": "C[C@H](NC(=S)Nc1ccc(Cl)cn1)c1cccc2ccccc12", "value": ">100 µM"}
{"structure": "CCc1c(Sc2ccccn2)n(COCc2ccccc2)c(=O)[nH]c1=O", "mutations": "RT-V106A", "value": "38 µM"}
{"structure": "CCC1=C(C[C@H]2NCCc3cc(OC)c(OC)cc32)C[C@H]2c3cc(OC)c(OC)cc3CCN2C1", "value": "9 µM"}
{"structure": "CSCC1C(=O)SCC(NC(=O)c2nc3ccccc3cc2O)C(=O)NCC(=O)N(C)C2CSSCC(C(=O)N1C)N(C)C(=O)CNC(=O)C(NC(=O)c1nc3ccccc3cc1O)CSC(=O)C(CSC)N(C)C2=O", "strain": "IIIB", "value": "900 µM"}
{"structure": "COc1cc(C(=O)Oc2c(-c3ccc(Cl)cc3)oc3ccccc3c2=O)ccc1OC(C)=O", "value": ">100 µM"}
{"structure": "Cc1c([C@@H](C)c2c(F)cccc2F)nc(SC2CCCC2)[nH]c1=O", "value": "30 µM"}
{"structure": "Cc1cc(C)c(-n2nnnc2SCC(=O)Nc2ccc(S(N)(=O)=O)cc2C)c(C)c1", "mutations": "RT-K103N", "value": "0.054 µM"}
{"structure": "O=C(O)CCCC#CC#CCCCCCCCCCCCCCc1ccco1", "value": "39.9 µg/mL"}
{"structure": "Fc1cccc(F)c1COCc1nc2ccccc2n1Cc1c(F)cccc1F", "value": ">10 µM"}
{"structure": "O=C(O[C@@H]1Cc2c(O)cc(O)cc2O[C@@H]1c1ccc(O)c(O)c1)c1cc(O)c(O)c(O)c1", "value": ">10 µM"}
{"structure": "COc1c(O)c(Cl)c2c(c1OC)-c1c(c(Cl)c(O)c(OC)c1OC)C[C@H](C)[C@H](C)C2", "value": "1.2 µM"}
{"structure": "CNc1ccc(Cl)cc1S(=O)(=O)c1ccccc1[N+](=O)[O-]", "mutations": "RT-K103N", "value": ">100 µM"}
{"structure": "Oc1cc(O)c2c(c1)O[C@H](c1cc(O)c(O)c(O)c1)[C@H](O)C2", "value": ">10 µM"}
{"structure": "COc1cc(/C=C/C(=O)Oc2c(-c3ccc(Cl)cc3)oc3ccccc3c2=O)ccc1O", "value": ">100 µM"}
{"structure": "C[C@H](CNC(=S)Nc1nccs1)c1ccccc1", "value": ">100 µM"}
{"structure": "COc1ccc2[nH]c(=O)oc2c1", "value": "<800 µM"}
{"structure": "O=C(CSc1nnnn1-c1cc(F)ccc1Cl)Nc1ccccc1[N+](=O)[O-]", "value": "0.01 µM"}
{"structure": "CN(C)P(=O)(c1ccccc1)c1c(C(N)=O)[nH]c2ccc(Cl)cc12", "mutations": "RT-K103N Y181C", "value": ">3.57 µM"}
{"structure": "OCCc1c[nH]c2ccc(O)cc12", "value": ">8000 µM"}
{"structure": "Cc1c(Cc2c(Cl)cccc2Cl)nc(Sc2ccccc2)[nH]c1=O", "mutations": "RT-K103N", "value": ">400 µM"}
{"structure": "Nc1ncnc2c1ncn2OCCOCP(=O)(O)OP(=O)(O)OP(=O)(O)O", "value": "1.5 µM"}
{"structure": "O=C(O)C1=C[C@@H](OC(=O)c2cc(O)c(O)c(O)c2)[C@@H](O)[C@H](OC(=O)c2cc(O)c(O)c(O)c2)C1", "value": "0.52 µM"}
{"structure": "c1ccc(C2SCc3nc4ccccc4n32)cc1", "mutations": "RT-K103N", "value": ">50 µM"}
{"structure": "CC[C@H]1OC(=O)[C@H](C)[C@@H](O[C@H]2C[C@@](C)(OC)[C@@H](O)[C@H](C)O2)[C@H](C)[C@@H](O[C@@H]2O[C@H](C)C[C@H](N(C)C)[C@H]2O)[C@](C)(O)C[C@@H](C)/C(=N\\OC)[C@H](C)[C@@H](O)[C@]1(C)O", "value": "<160 µM"}
{"structure": "O=C(O)C1=C[C@@H](O)[C@@H](O)[C@H](OC(=O)c2cc(O)c(O)c(O)c2)C1", "value": "92 µM"}
{"structure": "Cc1c(Cc2c(F)cccc2F)nc(Sc2ccccc2)[nH]c1=O", "mutations": "Y181I", "value": ">400 µM"}
{"structure": "Fc1cccc(F)c1Cn1c(-c2c(F)cccc2F)nc2ccccc21", "value": "~10 µM"}
{"structure": "CC[C@H](C)[C@H](NC(=O)[C@H](Cc1ccccc1)C[C@H](O)CN1C[C@H]2CCCC[C@H]2C[C@H]1C(=O)NC(C)(C)C)C(=O)NCc1nc2ccccc2[nH]1", "value": "100 µM"}
{"structure": "COc1ccc(Sc2nc(Cc3c(Cl)cccc3Cl)c(C)c(=O)[nH]2)cc1", "strain": "WT", "value": ">400 µM"}
{"structure": "COc1cc(C(=O)Oc2c(-c3ccc(Cl)c(Cl)c3)oc3ccccc3c2=O)ccc1OC(C)=O", "value": ">100 µM"}
{"structure": "COc1c2ccccc2c(OC)c2c(C)cc(=O)[nH]c12", "value": "153.9 µg/mL"}
{"structure": "O=C(O)C1=C[C@@H](OC(=O)c2cc(O)c(O)c(O)c2)[C@@H](OC(=O)c2cc(O)c(O)c(O)c2)[C@H](OC(=O)c2cc(O)c(O)c(O)c2)C1", "value": "0.1 µM"}
{"structure": "CC(CCN1CCC(c2ccccc2)CC1)(CN1C(=O)N[C@H](Cc2c[nH]c3ccccc23)C1=O)c1ccccc1", "value": "3.32 µM"}
{"structure": "O=C(/C=C/c1ccc(O)c2c1[C@H](C(=O)O[C@H](Cc1ccc(O)c(O)c1)C(=O)O)[C@@H](c1ccc(O)c(O)c1)O2)O[C@H](Cc1ccc(O)c(O)c1)C(=O)O", "value": "68 µM"}
{"structure": "O=C(/C=C/c1ccc(O)c(O)c1)Oc1c(-c2ccc(Cl)c(Cl)c2)oc2ccccc2c1=O", "value": "80 µM"}
{"structure": "O=C(CSc1sc(Cl)nc1-c1ccc(Br)cc1Br)Nc1cccnc1Cl", "value": ">361 µM"}
{"structure": "CC(=O)Oc1c(-c2ccc(Cl)cc2)oc2ccccc2c1=O", "value": ">100 µM"}
{"structure": "O=C(N[C@H](C(=O)N[C@@H](Cc1ccc(OCc2ccccc2)cc1)C(=O)C(F)(F)C(=O)NCc1ccccc1)C1CCCC1)OCc1ccccc1", "value": "1 µM"}
{"structure": "COc1cc(C(=O)Oc2c(-c3ccc(Cl)cc3)oc3ccccc3c2=O)cc(OC)c1O", "value": ">100 µM"}
{"structure": "CC(C)[C@H](NS(=O)(=O)Cc1ccccc1)C(=O)N[C@@H](Cc1ccc(OCc2ccccc2)cc1)C(=O)C(F)(F)C(=O)NCc1ccccc1", "value": "100 µM"}
{"structure": "O=C(O[C@@H]1Cc2c(O)cc(O)cc2O[C@@H]1c1ccc(O)c(O)c1)c1cc(O)c(O)c(O)c1", "value": "0.02 µM"}
{"structure": "CC[C@@]1(O)C(=O)OCc2c1cc1n(c2=O)Cc2cc3ccccc3nc2-1", "value": ">100 µM"}

4 of the rows above, restated:

structure	mutations	strain	value
Cc1csc(NC(=S)N[C@H](C)c2cccc3ccccc23)n1	-	-	1.17 µM
Cc1cccc2c1nc(-c1cccc3ccccc13)n2Cc1c(F)cccc1F	-	-	>10 µM
CC(C)[C@H](NS(=O)(=O)Cc1ccccc1)C(=O)N[C@@H](Cc1ccc(OCc2ccccc2)cc1)C(=O)C(F)(F)C(=O)NCc1ccccc1	-	-	100 µM
O=C(N[C@H](C(=O)N[C@@H](Cc1ccc(OCc2ccccc2)cc1)C(=O)C(F)(F)C(=O)NCc1ccccc1)C1CCCC1)OCc1ccccc1	-	-	1 µM

Blank or dashed fields: not listed here. ICn: concentration for n% inhibition.